Results: ChEMBL document CHEMBL4425145, “Discovery of New Anti-Schistosomal Hits by Integration of QSAR-Based Virtual Screening and High Content Screening” (J Med Chem, 2016)

The chains behind the UniProt entries cited, without tags or fusion partners. Residues count along the entry.
UniProt Q962Y6, 1-598: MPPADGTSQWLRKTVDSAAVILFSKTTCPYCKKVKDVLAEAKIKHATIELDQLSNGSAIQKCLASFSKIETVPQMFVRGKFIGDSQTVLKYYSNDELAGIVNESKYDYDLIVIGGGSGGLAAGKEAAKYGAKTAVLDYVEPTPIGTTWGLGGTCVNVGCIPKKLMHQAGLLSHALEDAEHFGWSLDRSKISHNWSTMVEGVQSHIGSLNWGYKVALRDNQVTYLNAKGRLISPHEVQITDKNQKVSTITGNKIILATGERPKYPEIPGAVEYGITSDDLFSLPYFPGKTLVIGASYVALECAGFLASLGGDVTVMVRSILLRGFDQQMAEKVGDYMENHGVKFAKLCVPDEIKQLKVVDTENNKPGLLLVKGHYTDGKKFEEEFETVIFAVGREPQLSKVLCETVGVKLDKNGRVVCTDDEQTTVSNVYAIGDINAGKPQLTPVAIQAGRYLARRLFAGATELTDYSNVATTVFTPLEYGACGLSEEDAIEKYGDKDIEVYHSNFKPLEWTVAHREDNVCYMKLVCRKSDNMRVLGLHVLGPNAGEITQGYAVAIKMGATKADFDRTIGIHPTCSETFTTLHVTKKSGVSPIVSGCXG

Target: Thioredoxin glutathione reductase (Schistosoma mansoni, UniProt Q962Y6)
Experiment: Inhibition of Schistosoma mansoni TGR

Structure (SMILES): CCc1nc2c([nH]1)c1no[n+]([O-])c1c1no[n+]([O-])c21
- IC50: 15.8 µM
